Assay results reported in patent US7312060.

Biological target: α-hemolysin (α-HL), wild type, with C-terminal His-6 tag (from plasmid pT7-WT-H6-αHL) (UniProt P09616)

trypsin (pure, Sigma Chemicals)
mobility shift in SDS-capillary gel electrophoresis (proteolysis): it showed peaks eluting earlier (13, 14 and 15 min) and major peak at 21 min
